According to article PMC10232890, “Impact of peptide:HLA complex stability for the identification of SARS-CoV-2-specific CD8^+T cells” (Frontiers in Immunology, 2023):

Assays:
HLA-A*0201 = HLA-A*0201 (Homo sapiens, UniProt P04439, D140Y/D185E/D98H/E176V/E277Q/G131W/G231S/I119V/I121R/I166T/I218V/L300P/L318F/N151K/N90K/P208A/P217A/Q86G/Q94H/R138H/R169H/T345S); format: binding
HLA-A*0301 = HLA-A*0301 (Homo sapiens, UniProt P04439); format: binding

| Sequence | Stability (%) (HLA-A*0201) | Stability (%) (HLA-A*0301) |
| --- | --- | --- |
| FTISVTTEI | 29% |  |
| EILPVSMTK |  | 2% |
